Experimental data: patent publication US20230407373A1 (priority 2020, published 2023)

Columns and labels:
[1] = tested on: SARS-CoV-2 gRNA and sgRNAs; assay type: binding; conditions: for background (unweighted spectral count in control): no-probe control pull-down, used as background for Probe II; for target (unweighted spectral count in RNP capture): Probe II capture, LC-MS/MS LFQ
[2] = tested on: SARS-CoV-2 gRNA; assay type: binding; conditions: for target (unweighted spectral count of the protein in the RNP capture): LC-MS/MS, Probe I sample (first 199 lines of Table 2)

Molecule | background (unweighted spectral count in control) [1] | target (unweighted spectral count of the protein in the RNP capture) [2] | target (unweighted spectral count in RNP capture) ([1]; […]) | other results
IGF2BP3: host protein, UniProt O00425 (protein, UniProt O00425 1-579, looked up) Insulin-like growth factor 2 …: MNKLYIGNLSENAAPSDLESIFKDAKIPVSGPFLVKTGYAFVDCPDESWALKAIEALSGKIELHGKPIEVEHSVPKRQRIRKLQIRNIPPHLQWEVLDSLLVQYGVVESCEQVNTDSETAVVNVTYSSKDQARQALDKLNGFQLENFTLKVAYIPDEMAAQQNPLQQPRGRRGLGQRGSSRQGSPGSVSKQKPCDLPLRLLVPTQFVGAIIGKEGATIRNITKQTQSKIDVHRKENAGAAEKSITILSTPEGTSAACKSILEIMHKEAQDIKFTEEIPLKILAHNNFVGRLIGKEGRNLKKIEQDTDTKITISPLQELTLYNPERTITVKGNVETCAKAEEEIMKKIRESYENDIASMNLQAHLIPGLNLNALGLFPPTSGMPPPTSGPPSAMTPPYPQFEQSETETVHLFIPALSVGAIIGKQGQHIKQLSRFAGASIKIAPAEAPDAKVRMVIITGPPEAQFKAQGRIYGKIKEENFVSPKEEVKLEAHIRVPSFAAGRVIGKGGKTVNELQNLSSAEVVVPRDQTPDENDQVVVKITGHFYACQVAQRKIQEILTQVKQHQQQKALQSGPPQSRRK | 1 | – | – | enrichment in SARS-CoV-2 Probe II RNP capture [1]: found in the SARS-CoV-2 experiments; enrichment in SARS-CoV-2 Probe I RNP capture [2]: found in the SARS-CoV-2 experiments
IGF28P3 (protein, UniProt O00425 1-579, looked up) Insulin-like growth factor 2 …: MNKLYIGNLSENAAPSDLESIFKDAKIPVSGPFLVKTGYAFVDCPDESWALKAIEALSGKIELHGKPIEVEHSVPKRQRIRKLQIRNIPPHLQWEVLDSLLVQYGVVESCEQVNTDSETAVVNVTYSSKDQARQALDKLNGFQLENFTLKVAYIPDEMAAQQNPLQQPRGRRGLGQRGSSRQGSPGSVSKQKPCDLPLRLLVPTQFVGAIIGKEGATIRNITKQTQSKIDVHRKENAGAAEKSITILSTPEGTSAACKSILEIMHKEAQDIKFTEEIPLKILAHNNFVGRLIGKEGRNLKKIEQDTDTKITISPLQELTLYNPERTITVKGNVETCAKAEEEIMKKIRESYENDIASMNLQAHLIPGLNLNALGLFPPTSGMPPPTSGPPSAMTPPYPQFEQSETETVHLFIPALSVGAIIGKQGQHIKQLSRFAGASIKIAPAEAPDAKVRMVIITGPPEAQFKAQGRIYGKIKEENFVSPKEEVKLEAHIRVPSFAAGRVIGKGGKTVNELQNLSSAEVVVPRDQTPDENDQVVVKITGHFYACQVAQRKIQEILTQVKQHQQQKALQSGPPQSRRK | – | 8 | – | –
QKI (protein, UniProt Q96PU8 1-341, looked up) KH domain-containing …: MVGEMETKEKPKPTPDYLMQLMNDKKLMSSLPNFCGIFNHLERLLDEEISRVRKDMYNDTLNGSTEKRSAELPDAVGPIVQLQEKLYVPVKEYPDFNFVGRILGPRGLTAKQLEAETGCKIMVRGKGSMRDKKKEEQNRGKPNWEHLNEDLHVLITVEDAQNRAEIKLKRAVEEVKKLLVPAAEGEDSLKKMQLMELAILNGTYRDANIKSPALAFSLAATAQAAPRIITGPAPVLPPAALRTPTPAGPTIMPLIRQIQTAVMPNGTPHPTAAIVPPGPEAGLIYTPYEYPYTLAPATSILEYPIEPSGVLGAVATKVRRHDMRVHPYQRIVTADRAATGN | – | 6 | – | target (unweighted spectral count of the protein in the RNP capture experiment) ([1]; […], LC-MS/MS label-free quantification, probe pool not given): 6; back-ground (unweighted spectral count of the protein in the control experiment) ([1]; protein background of the control (e.g. no-probe) experiment, […]): 1
IGF2BP2 (protein, UniProt Q9Y6M1 1-599, looked up) Insulin-like growth factor 2 …: MMNKLYIGNLSPAVTADDLRQLFGDRKLPLAGQVLLKSGYAFVDYPDQNWAIRAIETLSGKVELHGKIMEVDYSVSKKLRSRKIQIRNIPPHLQWEVLDGLLAQYGTVENVEQVNTDTETAVVNVTYATREEAKIAMEKLSGHQFENYSFKISYIPDEEVSSPSPPQRAQRGDHSSREQGHAPGGTSQARQIDFPLRILVPTQFVGAIIGKEGLTIKNITKQTQSRVDIHRKENSGAAEKPVTIHATPEGTSEACRMILEIMQKEADETKLAEEIPLKILAHNGLVGRLIGKEGRNLKKIEHETGTKITISSLQDLSIYNPERTITVKGTVEACASAEIEIMKKLREAFENDMLAVNQQANLIPGLNLSALGIFSTGLSVLSPPAGPRGAPPAAPYHPFTTHSGYFSSLYPHHQFGPFPHHHSYPEQEIVNLFIPTQAVGAIIGKKGAHIKQLARFAGASIKIAPAEGPDVSERMVIITGPPEAQFKAQGRIFGKLKEENFFNPKEEVKLEAHIRVPSSTAGRVIGKGGKTVNELQNLTSAEVIVPRDQTPDENEEVIVRIIGHFFASQTAQRKIREIVQQVKQQEQKYPQGVASQRSK | 1 | 32 | 81 | –
PUM2 (protein, UniProt Q8TB72 1-1066, looked up) Pumilio homolog 2: MNHDFQALALESRGMGELLPTKKFWEPDDSTKDGQKGIFLGDDEWRETAWGASHHSMSQPIMVQRRSGQGFHGNSEVNAILSPRSESGGLGVSMVEYVLSSSPADKLDSRFRKGNFGTRDAETDGPEKGDQKGKASPFEEDQNRDLKQGDDDDSKINGRGLPNGMDADCKDFNRTPGSRQASPTEVVERLGPNTNPSEGLGPLPNPTANKPLVEEFSNPETQNLDAMEQVGLESLQFDYPGNQVPMDSSGATVGLFDYNSQQQLFQRTNALTVQQLTAAQQQQYALAAAQQPHIAGVFSAGLAPAAFVPNPYIISAAPPGTDPYTAAGLAAAATLAGPAVVPPQYYGVPWGVYPANLFQQQAAAAANNTASQQAASQAQPGQQQVLRAGAGQRPLTPNQGQQGQQAESLAAAAAANPTLAFGQGLATGMPGYQVLAPTAYYDQTGALVVGPGARTGLGAPVRLMAPTPVLISSAAAQAAAAAAAGGTASSLTGSTNGLFRPIGTQPPQQQQQQPSTNLQSNSFYGSSSLTNSSQSSSLFSHGPGQPGSTSLGFGSGNSLGAAIGSALSGFGSSVGSSASSSATRRESLSTSSDLYKRSSSSLAPIGQPFYNSLGFSSSPSPIGMPLPSQTPGHSLTPPPSLSSHGSSSSLHLGGLTNGSGRYISAAPGAEAKYRSASSTSSLFSSSSQLFPPSRLRYNRSDIMPSGRSRLLEDFRNNRFPNLQLRDLIGHIVEFSQDQHGSRFIQQKLERATPAERQMVFNEILQAAYQLMTDVFGNYVIQKFFEFGSLDQKLALATRIRGHVLPLALQMYGCRVIQKALESISSDQQVISEMVKELDGHVLKCVKDQNGNHVVQKCIECVQPQSLQFIIDAFKGQVFVLSTHPYGCRVIQRILEHCTAEQTLPILEELHQHTEQLVQDQYGNYVIQHVLEHGRPEDKSKIVSEIRGKVLALSQHKFASNVVEKCVTHASRAERALLIDEVCCQNDGPHSALYTMMKDQYANYVVQKMIDMAEPAQRKIIMHKIRPHITTLRKYTYGKHILAKLEKYYLKNSPDLGPIGGPPNGML | 1 | – | 43 | –
